According to patent US11655268B2, “Nucleoside or nucleotide derivatives, and uses thereof” (ST Pharm Co., Ltd., priority 2018, dated 2023):

Key:
Details in all cases: CC50/EC50
DENV = test: Reduction in viral infection, dengue virus in Vero cells, immunofluorescence (4G2 antibody); format: cell-based, Dengue virus New Guinea C (NGC)
MERS-CoV = format: cell-based, MERS virus (MERS-CoV/KOR/KNIH/002_05_2015)
CHIKV = test: Cytopathic effect reduction, Chikungunya virus in Vero cells, MTT; format: cell-based
hCoV (229E) = format: cell-based, Human coronavirus hCoV 229E
FIPV = test: Cytopathic effect reduction, FIPV in CRFK cells, MTT; format: cell-based, feline infectious peritonitis virus (FIPV)

Compound | SI DENV (DENV) | other results
O=C(Nc1ccn(C2O[C@H](CO)[C@@H](O)[C@H]2F)c(=O)n1)c1cccnc1 (stereo in doubt) [Example 26, N-(1-((2S,3R,4R,5R)-3-fluoro-4-hydroxy-5-(hydroxymethyl)tetrahydrofuran-2-yl)-2-oxo-1,2-dihydropyrimidin-4-yl)nicotinamide] | >1.73 | 
O=C(Nc1ccn(C2O[C@H](CO)[C@@H](O)[C@H]2F)c(=O)n1)c1cccc(-c2ccccc2)n1 (stereo in doubt) [Example 27, N-(1-((2S,3R,4R,5R)-3-fluoro-4-hydroxy-5-(hydroxymethyl)tetrahydrofuran-2-yl)-2-oxo-1,2-dihydropyrimidin-4-yl)-6-phenylpicolinamide] | 4.71 | SI MERS-CoV (MERS-CoV): 2.71
Cc1nccc(C(=O)Nc2ccn(C3O[C@H](CO)[C@@H](O)[C@H]3F)c(=O)n2)n1 (stereo in doubt) [Example 29, N-(1-((2S,3R,4R,5R)-3-fluoro-4-hydroxy-5-(hydroxymethyl)tetrahydrofuran-2-yl)-2-oxo-1,2-dihydropyrimidin-4-yl)-2-methylpyrimidin-4-carboxamide] |  | SI CHIKV (CHIKV): >4.17
O=C(Nc1ccn(C2O[C@H](CO)[C@@H](O)[C@H]2F)c(=O)n1)c1ccc([N+](=O)[O-])cn1 (stereo in doubt) [Example 30, N-(1-((2S,3R,4R,5R)-3-fluoro-4-hydroxy-5-(hydroxymethyl)tetrahydrofuran-2-yl)-2-oxo-1,2-dihydropyrimidin-4-yl)-5-nitropicolinamide] | >1.28 | SI CHIKV (CHIKV): >1.60
O=C(Nc1ccn(C2O[C@H](CO)[C@@H](O)[C@H]2F)c(=O)n1)c1cccnn1 (stereo in doubt) [Example 33, N-(1-((2S,3R,4R,5R)-3-fluoro-4-hydroxy-5-(hydroxymethyl)tetrahydrofuran-2-yl)-2-oxo-1,2-dihydropyrimidin-4-yl)pyridazine-3-carboxamide] |  | SI CHIKV (CHIKV): >1.16
O=C(Nc1ccn(C2O[C@H](CO)[C@@H](O)[C@H]2F)c(=O)n1)c1ccncn1 (stereo in doubt) [Example 36, N-(1-((2S,3R,4R,5R)-3-fluoro-4-hydroxy-5-(hydroxymethyl)tetrahydrofuran-2-yl)-2-oxo-1,2-dihydropyrimidin-4-yl)pyrimidine-4-carboxamide] |  | SI CHIKV (CHIKV): >1.73
N#Cc1ccc(C(=O)Nc2ccn(C3O[C@H](CO)[C@@H](O)[C@H]3F)c(=O)n2)nc1 (stereo in doubt) [Example 37, 5-cyano-N-(1-((2S,3R,4R,5R)-3-fluoro-4-hydroxy-5-(hydroxymethyl)tetrahydrofuran-2-yl)-2-oxo-1,2-dihydropyrimidin-4-yl)picolinamide] |  | SI CHIKV (CHIKV): >1.93
O=C(Nc1ccn([C@@H]2O[C@H](CO)[C@@H](O)C2(F)F)c(=O)n1)c1cccnc1 [Example 1, N-(1-((2R,4R,5R)-3,3-difluoro-4-hydroxy-5-(hydroxymethyl)tetrahydrofuran-2-yl)-2-oxo-1,2-dihydropyrimidin-4-yl)nicotinamide] | >29.24 | SI MERS-CoV (MERS-CoV): >9.62
O=C(Nc1ccn([C@@H]2O[C@H](CO)[C@@H](O)C2(F)F)c(=O)n1)c1ccccn1 [Example 2, N-(1-((2R,4R,5R)-3,3-difluoro-4-hydroxy-5-(hydroxymethyl)tetrahydrofuran-2-yl)-2-oxo-1,2-dihydropyrimidin-4-yl)picolinamide] | >138.89 | SI MERS-CoV (MERS-CoV): >55.56
O=C(Nc1ccn([C@@H]2O[C@H](CO)[C@@H](O)C2(F)F)c(=O)n1)c1ccc(F)cn1 [Example 9, N-(1-((2R,4R,5R)-3,3-difluoro-4-hydroxy-5-(hydroxymethyl)tetrahydrofuran-2-yl)-2-oxo-1,2-dihydropyrimidin-4-yl)-5-fluoropicolinamide] | >74.63 | 
Cc1ccc(C(=O)Nc2ccn([C@@H]3O[C@H](CO)[C@@H](O)C3(F)F)c(=O)n2)nc1 [Example 10, N-(1-((2R,4R,5R)-3,3-difluoro-4-hydroxy-5-(hydroxymethyl)tetrahydrofuran-2-yl)-2-oxo-1,2-dihydropyrimidin-4-yl)-5-methylpicolinamide] | >39.53 | 
Cc1cccnc1C(=O)Nc1ccn([C@@H]2O[C@H](CO)[C@@H](O)C2(F)F)c(=O)n1 [Example 12, N-(1-((2R,4R,5R)-3,3-difluoro-4-hydroxy-5-(hydroxymethyl)tetrahydrofuran-2-yl)-2-oxo-1,2-dihydropyrimidin-4-yl)-3-methylpicolinamide] | >16.23 | 
Cc1cccc(C(=O)Nc2ccn([C@@H]3O[C@H](CO)[C@@H](O)C3(F)F)c(=O)n2)n1 [Example 13, N-(1-((2R,4R,5R)-3,3-difluoro-4-hydroxy-5-(hydroxymethyl)tetrahydrofuran-2-yl)-2-oxo-1,2-dihydropyrimidin-4-yl)-6-methylpicolinamide] | >50.51 | 
O=C(Nc1ccn([C@@H]2O[C@H](CO)[C@@H](O)C2(F)F)c(=O)n1)c1cccc(-c2ccccc2)n1 [Example 17, N-(1-((2R,4R,5R)-3,3-difluoro-4-hydroxy-5-(hydroxymethyl)tetrahydrofuran-2-yl)-2-oxo-1,2-dihydropyrimidin-4-yl)-6-phenylpicolinamide] | >49.08 | 
Cl.Nc1ccc(C(=O)Nc2ccn([C@@H]3O[C@H](CO)[C@@H](O)C3(F)F)c(=O)n2)nc1 [Example 20, 5-amino-N-(1-((2R,4R,5R)-3,3-difluoro-4-hydroxy-5-(hydroxymethyl)tetrahydrofuran-2-yl)-2-oxo-1,2-dihydropyrimidin-4-yl)picolinamide-hydrochloride] | 47.44 | 
COc1ccc(C(=O)Nc2ccn([C@@H]3O[C@H](CO)[C@@H](O)C3(F)F)c(=O)n2)nc1 [Example 21, N-(1-((2R,4R,5R)-3,3-difluoro-4-hydroxy-5-(hydroxymethyl)tetrahydrofuran-2-yl)-2-oxo-1,2-dihydropyrimidin-4-yl)-5-methoxypicolinamide] | >76.92 | 
Cc1nccc(C(=O)Nc2ccn([C@@H]3O[C@H](CO)[C@@H](O)C3(F)F)c(=O)n2)n1 [Example 24, N-(1-((2R,4R,5R)-3,3-difluoro-4-hydroxy-5-(hydroxymethyl)tetrahydrofuran-2-yl)-2-oxo-1,2-dihydropyrimidin-4-yl)-2-methylpyrimidin-4-carboxamide] | >46.12 | 
O=C(Nc1ccn([C@@H]2O[C@H](CO)[C@@H](O)C2(F)F)c(=O)n1)c1ccc(-c2ccccc2)cn1 [Example 25, N-(1-((2R,4R,5R)-3,3-difluoro-4-hydroxy-5-(hydroxymethyl)tetrahydrofuran-2-yl)-2-oxo-1,2-dihydropyrimidin-4-yl)-5-phenylpicolinamide] | >24.58 | 
Nc1ccn([C@@H]2O[C@H](CO)[C@@H](O)C2(F)F)c(=O)n1 [Gemcitabine, reference compound] |  | SI MERS-CoV (MERS-CoV): 90.91; SI hCoV (229E) (hCoV (229E)): 227.27; SI FIPV (FIPV): 4.38
